These results are taken from patent US20040258687A1.

The chains behind the UniProt entries cited, without tags or fusion partners. Residues count along the entry.
UniProt P25092, 24-1073: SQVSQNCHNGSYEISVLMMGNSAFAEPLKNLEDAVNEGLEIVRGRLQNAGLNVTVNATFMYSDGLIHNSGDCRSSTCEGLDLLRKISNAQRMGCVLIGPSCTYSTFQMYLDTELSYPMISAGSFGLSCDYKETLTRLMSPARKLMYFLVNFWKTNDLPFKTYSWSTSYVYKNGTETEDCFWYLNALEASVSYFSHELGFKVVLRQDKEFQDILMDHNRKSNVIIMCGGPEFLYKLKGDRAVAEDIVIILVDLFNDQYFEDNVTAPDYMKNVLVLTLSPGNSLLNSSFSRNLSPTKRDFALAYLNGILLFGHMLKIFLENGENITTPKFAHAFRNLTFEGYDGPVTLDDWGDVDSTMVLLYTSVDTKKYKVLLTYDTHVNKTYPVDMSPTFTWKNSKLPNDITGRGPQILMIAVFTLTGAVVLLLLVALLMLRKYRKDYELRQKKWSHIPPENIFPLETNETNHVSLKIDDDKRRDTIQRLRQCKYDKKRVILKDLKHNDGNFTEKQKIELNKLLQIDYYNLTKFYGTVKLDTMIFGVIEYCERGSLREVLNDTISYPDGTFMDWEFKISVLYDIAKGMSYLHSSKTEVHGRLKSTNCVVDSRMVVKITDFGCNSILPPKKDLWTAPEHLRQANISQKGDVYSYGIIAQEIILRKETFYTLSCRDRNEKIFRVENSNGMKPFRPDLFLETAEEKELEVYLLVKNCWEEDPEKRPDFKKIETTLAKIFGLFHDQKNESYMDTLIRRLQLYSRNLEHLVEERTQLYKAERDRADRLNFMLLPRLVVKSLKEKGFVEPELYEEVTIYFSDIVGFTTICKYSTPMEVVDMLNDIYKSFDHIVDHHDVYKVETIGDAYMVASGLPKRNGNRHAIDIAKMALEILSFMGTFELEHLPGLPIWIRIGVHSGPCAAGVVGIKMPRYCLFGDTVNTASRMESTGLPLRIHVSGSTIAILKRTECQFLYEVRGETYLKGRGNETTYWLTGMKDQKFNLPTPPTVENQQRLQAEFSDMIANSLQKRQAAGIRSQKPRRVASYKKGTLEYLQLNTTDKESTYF

This experiment concerns the target guanylyl cyclase C (GC-C), as expressed on T84 human colon carcinoma cells (human) (UniProt P25092). In words: cell-based or functional assay.

The substance “E. coli heat-stable enterotoxin (ST) (peptide)” yielded an IC50 for ST as an anticancer agent in vitro of 14 nM.
